Test results taken from PMC4489319 (ACS Infectious Diseases, 2015).

Tests used:
Assay in all cases: purified protein
Conditions in all cases: pH 8.5; 25.0 °C
[1] = tested on: C[C@H](CCC(=O)SCCNC(=O)CCNC(=O)[C@H](O)C(C)(C)COP(=O)(O)OP(=O)(O)OC[C@H]1O[C@@H](n2cnc3c(N)ncnc32)[C@H](O)[C@@H]1OP(=O)(O)O)[C@H]1CC[C@H]2[C@@H]3CCC4=CC(=O)CC[C@]4(C)[C@H]3CC[C@]12C
[2] = tested on: CC(CCC[C@@H](C)[C@H]1CC[C@H]2[C@@H]3CCC4=CC(=O)CC[C@]4(C)[C@H]3CC[C@]12C)C(=O)SCCNC(=O)CCNC(=O)[C@H](O)C(C)(C)COP(=O)(O)OP(=O)(O)OC[C@H]1O[C@@H](n2cnc3c(N)ncnc32)[C@H](O)[C@@H]1OP(=O)(O)O
[3] = tested on: CCCCCCCC(=O)SCCNC(=O)CCNC(=O)[C@H](O)C(C)(C)COP(=O)(O)OP(=O)(O)OC[C@H]1O[C@@H](n2cnc3c(N)ncnc32)[C@H](O)[C@@H]1OP(=O)(O)O
[4] = tested on: C[C@H](C(=O)SCCNC(=O)CCNC(=O)[C@H](O)C(C)(C)COP(=O)(O)OP(=O)(O)OC[C@H]1O[C@@H](n2cnc3c(N)ncnc32)[C@H](O)[C@@H]1OP(=O)(O)O)[C@H]1CC[C@H]2[C@@H]3CCC4=CC(=O)CC[C@]4(C)[C@H]3CC[C@]12C

Question: For “ChsE1-ChsE2 (Mycobacterium tuberculosis H37Rv)”, which Km [1] is on record?
Answer: The Km was 6.5 ± 0.9 µM.

Question: What about the kcat/Km [1] of the same substance?
Answer: Its kcat/Km is 24000 M⁻¹ s⁻¹.

Question: Which Km [2] does the source give for “ChsE4-ChsE5 (Mycobacterium tuberculosis H37Rv)” here?
Answer: The Km was 3.4 ± 1.0 µM.

Question: What about the kcat/Km [2] of the same substance?
Answer: The kcat/Km was 810000 M⁻¹ s⁻¹.

Question: What about the Km [3] of the same substance?
Answer: Its Km is 4.1 ± 0.9 µM.

Question: What about the kcat/Km [3] of the same substance?
Answer: Its kcat/Km is 10000 M⁻¹ s⁻¹.

Question: And the Km [4]?
Answer: The Km was 3.3 ± 0.7 µM.

Question: What about the kcat/Km [4] of the same substance?
Answer: The kcat/Km was 450000 M⁻¹ s⁻¹.

Question: And the Km [1]?
Answer: The Km was 2.6 ± 0.4 µM.

Question: And the kcat/Km [1]?
Answer: The kcat/Km was 190000 M⁻¹ s⁻¹.
